Anti-infective test results gathered from many reports (values: NIAID ChemDB through PubChem).

Shared fields: cytotoxicity tests; cells: CEM; measure: CC50

Blank or dashed fields: not listed here. Rows are shuffled and stem from different studies. CCn: concentration that lowers growth or viability of the cells by n%.

compound | method | value
CCc1c(S(=O)(=O)Cc2cccc3ccccc23)cc(C)oc1=O | MTT | 68 µM
O=C1CSC(c2c(F)cccc2F)N1c1cccc(Br)n1 | MTT | ≥269.4 µM
CCOC(=O)c1cc(O)c(O)c(O)c1 | cell count | 58 µg/mL
CCCCCCCCCCCCCC(=O)OP(=O)(O)OP(=O)(O)OP(=O)(O)OC[C@@H]1C=C[C@H](n2cc(C)c(=O)[nH]c2=O)O1 | - | >20 µM
Nc1ccn([C@@H]2C=C(F)[C@H](CO)S2)c(=O)n1 | MTT | >100 µM
Cc1cn([C@H]2C[C@H](NC(N)=O)[C@@H](CO)O2)c(=O)[nH]c1=O | MTT | >100 µg/mL
COc1cc(CNC(=O)c2ccc3ccc(C(=O)O)c(O)c3n2)cc(O)c1O | MTT | 100 µM
Cc1cn([C@H]2C=C[C@@H](COP3(=O)OCc4cc(CCC(=O)OCOC(=O)C(C)C)ccc4O3)O2)c(=O)[nH]c1=O | - | 74 µM
Cc1cc(NCc2cccc3ccccc23)cc(=O)o1 | MTT | 175 µM
C[C@H](O)C(C)(C)OC(=O)N[C@@H](Cc1ccccc1)[C@H](O)CNC[C@@H](O)[C@H](Cc1ccccc1)NC(=O)OC(C)(C)C | - | >10 µM
Cc1cn([C@H]2C[C@H](N=[N+]=[N-])[C@@H](CO)O2)c(=O)[nH]c1=O | - | 13 µM
Cc1cc(S(=O)(=O)Cc2cccc3ccccc23)cc(=O)o1 | MTT | 5.4 µM
O=C(O)P(=O)(O)O | - | >100 µM
Cc1cn([C@H]2C=C[C@@H](CO)O2)c(=O)[nH]c1=O | - | >10 µM
CNC[C@H](O)c1ccc(O)c(O)c1 | cell count | 100 µg/mL
Cc1cn([C@@H]2C=C(F)[C@H](CO)S2)c(=O)[nH]c1=O | MTT | ≥100 µM
N#C/C(=C\c1cc(O)c(O)c(I)c1)C(=O)NCCCc1ccccc1 | - | 9.6 µM
O=C1C(Cl)=C(Cl)C(=O)c2ccccc21 | MTS | 5 µM
Cc1cn([C@H]2CC(SSC(Cl)(Cl)Cl)[C@@H](CO)O2)c(=O)[nH]c1=O | - | <121 µM
Nc1ccn([C@H]2CC[C@@H](CO)O2)c(=O)n1 | - | 3 µM
Nc1nc2c(ncn2C2CC(CCP(=O)(O)O)(C(F)(F)F)CO2)c(=O)[nH]1 | MTT | >100 µM
O=c1[nH]cccc1O | cell count | >100 µg/mL
N#Cc1c(N)nc(N)nc1OCCOCP(=O)(O)O | - | ≥300 µM
Cn1c(=O)sn(-c2cccc3ccccc23)c1=O | MTS | >10 µM
Nc1ncnc2c1ncn2[C@@H]1C=C(F)[C@H](CO)S1 | MTT | >100 µM
N#C/C(=C\c1ccc(O)c(O)c1)C(=O)NCCCCCCNC(=O)/C(C#N)=C/c1ccc(O)c(O)c1 | - | >200 µM
O=C(O)/C=C/c1ccc(O)c(O)c1 | cell count | 100 µg/mL
Cc1cn([C@H]2C=C[C@@H](CO)O2)c(=O)[nH]c1=O | - | 48 µM
Nc1nc(=O)n([C@@H]2C[Se][C@H](CO)O2)cc1F | - | >100 µM
N#C/C(=C\c1ccc(O)c(O)c1)C(=O)NCCCCNC(=O)/C(C#N)=C/c1ccc(O)c(O)c1 | - | 28.6 µM
O=C(NCc1ccc(O)cc1O)c1ccc2ccc(C(=O)O)c(O)c2n1 | MTT | >100 µM
CCCCCCCCCCCCCC(=O)OP(=O)(O)OC[C@@H]1C=C[C@H](n2cc(C)c(=O)[nH]c2=O)O1 | - | >20 µM
COC(=O)[C@H](C)NP(=O)(OC[C@H]1O[C@@H](n2cc(C)c(=O)[nH]c2=O)C[C@@H]1N=[N+]=[N-])Oc1ccc(Br)cc1 | - | >10 µM
Cc1cn([C@H]2C=C(F)[C@@H](CO)S2)c(=O)[nH]c1=O | MTT | >100 µM
CO[C@@H]1N([C@H]2C=C[C@@H](CO)O2)C(=O)NC(=O)[C@@]1(C)Br | - | >128 µM
Nc1nc(N)c(C=O)c(OCCOCP(=O)(O)O)n1 | - | ≥300 µM
CCCCCCCCCCCCCC(=O)OP(=O)(O)OP(=O)(O)OP(=O)(O)OC[C@H]1O[C@@H](n2cc(C)c(=O)[nH]c2=O)C[C@@H]1N=[N+]=[N-] | - | >50 µM
O=c1[nH]cnc2c1ncn2[C@H]1CC[C@@H](CO)O1 | - | >500 µM
COC1(C)C(=O)NC(=O)N([C@H]2C=C[C@@H](CO)O2)[C@H]1O | - | >170 µM
O=C(NCc1ccc(O)c(O)c1)Nc1ccc2ccc(C(=O)O)c(O)c2n1 | MTT | >100 µM
O=C1CSC(c2c(F)cccc2F)N1c1ccc(Br)cn1 | MTT | 45.8 µM
COc1cccc(O)c1O | cell count | >100 µg/mL
Nc1ccn([C@H]2C=C(F)[C@@H](CO)S2)c(=O)n1 | MTT | >100 µM
N#C/C(=C\c1ccc(O)c(O)c1)C(=O)NCc1cccc(CNC(=O)/C(C#N)=C/c2ccc(O)c(O)c2)c1 | - | 10.6 µM
NCC(=O)c1ccc(O)c(O)c1 | cell count | >100 µg/mL
Nc1nc2c(ncn2[C@H]2C=C[C@@H](CO)O2)c(=O)[nH]1 | - | 70 µM
Nc1ncnc2c1ncn2CCOCP(=O)(O)O | - | 69 µM
Cc1cc(C)nc(N2C(=O)CSC2c2c(Cl)cccc2Cl)c1 | MTT | ≥283.1 µM
O=C(NCc1ccc(O)c(O)c1)c1ccc2ccc(C(=O)O)c(O)c2n1 | MTT | >100 µM
C[C@]1(Br)C(=O)NC(=O)N([C@H]2C=C[C@@H](CO)O2)[C@@H]1O | - | >200 µM
Cc1cn([C@H]2C[C@H](Nc3nc(N)nn3C)[C@@H](CO)O2)c(=O)[nH]c1=O | MTT | >100 µg/mL
Cc1cn([C@H]2C[C@H](N=[N+]=[N-])[C@@H](COP(=O)(O)OP(=O)(O)OP(=O)(O)O)O2)c(=O)[nH]c1=O | - | >20 µM
CO[C@H]1N([C@H]2C=C[C@@H](CO)O2)C(=O)NC(=O)[C@]1(C)I | - | 66 µM
O=c1ccn([C@@H]2C=C(F)[C@H](CO)S2)c(=O)[nH]1 | MTT | >100 µM
CCCCCCCCCCCCCC(=O)OP(=O)(O)OP(=O)(O)OC[C@H]1O[C@@H](n2cc(C)c(=O)[nH]c2=O)C[C@@H]1N=[N+]=[N-] | - | >50 µM
CO[C@H]1N([C@H]2C=C[C@@H](CO)O2)C(=O)NC(=O)[C@]1(C)Cl | - | >1030 µM
COCC(C)(C)OC(=O)N[C@@H](Cc1ccccc1)[C@H](O)CNC[C@@H](O)[C@H](Cc1ccccc1)NC(=O)OC(C)(C)C | - | >10 µM
N#C/C(=C\c1ccc(O)c(O)c1)C(=O)NCCCCCCCCNC(=O)/C(C#N)=C/c1ccc(O)c(O)c1 | - | 13.4 µM
Cc1cn([C@H]2C=C[C@@H](COP3(=O)OCc4cc(C=O)ccc4O3)O2)c(=O)[nH]c1=O | - | 113 µM
Nc1ncnc2c1ncn2C1CC(CCP(=O)(O)O)(C(F)(F)F)CO1 | MTT | >100 µM
CC(C)(C)OC(=O)N[C@@H](Cc1ccccc1)[C@H](O)CNC[C@@H](O)[C@H](Cc1ccccc1)NC(=O)OC(C)(CO)CO | - | >10 µM
Cc1ccnc2c1NC(=O)c1cccnc1N2C1CC1 | MTT | >10 µM
O=c1[nH]c(=O)n([C@H]2C[C@H](O)[C@@H](CO)O2)cc1C12B3B4B5B6B(B3B1B42)B1B5C61 | - | 70.9 µM
O=C(NCc1cc(O)cc(O)c1)c1ccc2ccc(C(=O)O)c(O)c2n1 | MTT | >100 µM
N#C/C(=C\c1cc(O)c(O)c(Br)c1)C(=O)NCCCNC(=O)/C(C#N)=C/c1cc(O)c(O)c(Br)c1 | - | 113 µM
Nc1ncnc2c1ncn2CCOCP(=O)(O)O | MTT | 40 µM
CC(=O)OC(OC(C)=O)c1ccc2c(c1)COP(=O)(OC[C@@H]1C=C[C@H](n3cc(C)c(=O)[nH]c3=O)O1)O2 | - | 99 µM
CO[C@H]1N([C@H]2C=C[C@@H](CO)O2)C(=O)NC(=O)[C@]1(C)Br | - | >128 µM
Nc1nc2c(ncn2[C@H]2C=C(F)[C@@H](CO)S2)c(=O)[nH]1 | MTT | >100 µM
CO[C@@H]1N([C@H]2C=C[C@@H](CO)O2)C(=O)NC(=O)[C@@]1(C)Cl | - | >1030 µM
CC(C)(C)OC(=O)N[C@@H](Cc1ccccc1)[C@H](O)CNC[C@@H](O)[C@H](Cc1ccccc1)NC(=O)OC1(CO)CCC1 | - | >10 µM

5 of the rows above, restated:

compound,method,value
Cn1c(=O)sn(-c2cccc3ccccc23)c1=O,MTS,>10 µM
O=c1ccn([C@@H]2C=C(F)[C@H](CO)S2)c(=O)[nH]1,MTT,>100 µM
CO[C@@H]1N([C@H]2C=C[C@@H](CO)O2)C(=O)NC(=O)[C@@]1(C)Br,-,>128 µM
COC(=O)[C@H](C)NP(=O)(OC[C@H]1O[C@@H](n2cc(C)c(=O)[nH]c2=O)C[C@@H]1N=[N+]=[N-])Oc1ccc(Br)cc1,-,>10 µM
Cc1cn([C@H]2C[C@H](N=[N+]=[N-])[C@@H](CO)O2)c(=O)[nH]c1=O,-,13 µM